In publication PMC7287799 (Molecules, 2020):

Target: CLas IMPDHΔ98-201 (Candidatus Liberibacter asiaticus, UniProt C6XG59, DEL98-201/INS97G)
Details: for type of inhibition against IMP: varying IMP at fixed NAD+; for reversibility of inhibition: extended measurement time, no exponential enzyme decay observed

Compound | type of inhibition against IMP | reversibility of inhibition | effect on CLas IMPDHΔ98-201 enzyme activity
S=c1[nH]cnc2nc[nH]c12 | uncompetitive | – | –
O=c1c2ccccc2[se]n1-c1ccccc1 | – | reversible | –
NC(=O)c1ncn([C@@H]2O[C@H](CO)[C@@H](O)[C@H]2O)n1 | – | – | almost no effect
O=[N+]([O-])C(Br)(CO)CO | noncompetitive | reversible | –
CCN(CC)C(=S)SSC(=S)N(CC)CC | noncompetitive | reversible | –
